Measured values from several laboratories, pooled; numbers as filed in NIAID ChemDB.

Common to all: tests in culture; agent: Human herpesvirus 6; cell line: HSB-2; measure: EC50

ECn: concentration that inhibits the pathogen or its effect by n%.

SMILES	strain or isolate	read by	value
Nc1nc(OCC2CC2)c2ncn(/C=C3/C[C@@H]3CO)c2n1	TYPE 6B	flow cytometry	1.2 µM
Nc1nc2c(ncn2COC(CO)CO)c(=O)[nH]1	GS	antigen	25 µM
CC(C)Nc1nc2cc(Cl)c(Cl)cc2n1[C@H]1O[C@@H](CO)[C@H](O)[C@@H]1O	GS (subtype 6A)	flow cytometry	>125 µM
O=C(O)P(=O)(O)O	GS	antigen	49 µM
O[C@@H]1[C@H](O)[C@H](O)CO[C@H]1n1c(Br)nc2cc(Cl)c(Cl)cc21	6a	hybridisation	23 µM
CCCCCSc1nc(N)nc2c1ncn2/C=C1/C[C@@H]1CO	TYPE 6A	flow cytometry	16.8 µM
Nc1nc2c(ncn2[C@@H]2C[C@H](CO)[C@H]2CO)c(=O)[nH]1	GS (subtype 6A)	cytopathic effect	2.17 µg/mL
O[C@@H]1[C@H](O)[C@H](O)CO[C@H]1n1c(Br)nc2cc(Cl)c(Cl)cc21	GS (subtype 6A)	flow cytometry	>125 µM
Nc1nc(NC2CC2)c2ncn(/C=C3/C[C@@H]3CO)c2n1	TYPE 6A	flow cytometry	3.3 µM
O=c1[nH]c(=O)n([C@@H]2O[C@H](CO)[C@@H](O)[C@@H]2O)cc1/C=C/Br	GS	antigen	>80 µM
NC(=O)c1c(Cl)c(-c2cccnc2)n2c1CCCC2	TYPE A (GS)	hybridisation	0.053 µM
OCC1OC(n2c(Br)nc3cc(Cl)c(Cl)cc32)C(O)C1O	6a	hybridisation	31 µM
Cc1c(S(=O)(=O)c2ccc(Cl)cc2)c(NC(=O)C(F)(F)F)n(Cc2ccccc2)c1C	GS (TYPE 6A)	hybridisation	12 µg/mL
C#CCNc1nc(N)nc2c1ncn2/C=C1/C[C@@H]1CO	TYPE 6A	flow cytometry	100 µM
N#CC1C(c2ccccc2)Nc2ccccc2S1(=O)=O	GS (TYPE 6A)	cytopathic effect	>20 µg/mL
C=CCNc1nc(N)nc2c1ncn2/C=C1/C[C@@H]1CO	TYPE 6A	flow cytometry	8.3 µM
Nc1nc2c(ncn2CCC(CO)CO)c(=O)[nH]1	GS (subtype 6A)	cytopathic effect	71 µg/mL
O=C(NCc1ccc(Cl)cc1)c1cn2c3c(cc(CN4CCOCC4)cc3c1=O)OC(c1cccnc1)C2	GS (TYPE A)	antigen / flow cytometry	>18.8 µM
Nc1nc2c(ncn2COC(CO)CO)c(=O)[nH]1	GS (subtype 6A)		8 µg/mL
CC(C)Nc1nc2cc(Cl)c(Cl)cc2n1[C@@H]1OC[C@@H](O)[C@H]1O	6a	hybridisation	>20 µM
Cc1oc(NC(=O)C(F)(F)F)c(S(=O)(=O)c2ccc(Cl)cc2)c1C	GS (TYPE 6A)	cytopathic effect	>20 µg/mL
CC(C)Nc1nc2cc(Cl)c(Cl)cc2n1[C@@H]1O[C@@H](C)[C@@H](O)[C@H]1O	6a	hybridisation	>10 µM
Nc1nc2c(ncn2C[C@]2(CO)C[C@H]2CO)c(=O)[nH]1	GS (subtype 6A)		3.45 µg/mL

Repeating the final 3 entries:

{"SMILES": "Cc1oc(NC(=O)C(F)(F)F)c(S(=O)(=O)c2ccc(Cl)cc2)c1C", "strain or isolate": "GS (TYPE 6A)", "read by": "cytopathic effect", "value": ">20 µg/mL"}
{"SMILES": "CC(C)Nc1nc2cc(Cl)c(Cl)cc2n1[C@@H]1O[C@@H](C)[C@@H](O)[C@H]1O", "strain or isolate": "6a", "read by": "hybridisation", "value": ">10 µM"}
{"SMILES": "Nc1nc2c(ncn2C[C@]2(CO)C[C@H]2CO)c(=O)[nH]1", "strain or isolate": "GS (subtype 6A)", "value": "3.45 µg/mL"}

Rows are shuffled and stem from different studies. Blank or dashed fields: not listed here.